Anti-infective test results gathered from many reports (values: NIAID ChemDB through PubChem).

Common to all: cytotoxicity tests; cells: HFF; read by: visual reading; measure: CC50

CCn is the concentration with n% toxicity to the cells. Conditions beyond the fields shown may differ between rows.

Cc1cn([C@@H]2O[C@H](CO)[C@@H](O)[C@@H]2F)c(=O)[nH]c1=O ; result: 0.2 µM
OC[C@H]1O[C@@H](n2c(Cl)nc3cc(Cl)c(Cl)cc32)C[C@@H]1O ; result: >100 µM
CC(C)Nc1nc2cc(Cl)c(Cl)cc2n1[C@H]1O[C@H](CO)[C@H](O)[C@@H]1O ; result: >100 µM
OC[C@H]1O[C@@H](n2c(Cl)nc3cc(Cl)c(Cl)cc32)[C@H](O)[C@@H]1O ; result: 238 µM
Cc1nsc2nc(SCc3ccccc3)[nH]c12 ; result: 10 µM
OC[C@@H]1O[C@@H](n2c(NC3CCCCCC3)nc3cc(Cl)c(Cl)cc32)[C@H](O)[C@H]1O ; result: 21 µM
CNc1nc2cc(Cl)c(Cl)cc2n1COC(CO)CO ; result: >100 µM
OC[C@H]1O[C@@H](n2c(=S)[nH]c3cc(Cl)c(Cl)cc32)C[C@@H]1O ; result: >100 µM
OCC(CO)OCn1c(=S)[nH]c2c(Cl)c(Cl)ccc21 ; result: >100 µM
CCSCc1c(Cl)nc2cc(Cl)c(Cl)cn12 ; result: >100 µM
C[C@@H]1O[C@@H](n2c(Br)nc3cc(Cl)c(Cl)cc32)[C@H](O)[C@@H]1O ; result: >100 µM
CCc1nc2c3c(cn([C@@H]4O[C@H](CO)[C@@H](O)[C@H]4O)c3n1)C(N)=NN2C ; result: >100 µM
CN(C)c1nc2c(Cl)cc(Cl)cc2n1COCCO ; result: >100 µM
OC[C@H]1O[C@@H](n2c(Cl)nc3cc(Cl)c(Cl)cc32)[C@H](O)[C@@H]1O ; result: 238 µM
Nc1nc2cc(Cl)c(Cl)cc2n1COCCO ; result: >100 µM
OC[C@@H]1O[C@@H](n2c(Br)nc3cc(Cl)c(Cl)cc32)[C@H](O)[C@H]1O ; result: >100 µM
OCCOCn1c(Br)nc2cc(Cl)c(Cl)cc21 ; result: >100 µM
Cc1nc2c3c(cn([C@@H]4O[C@H](CO)[C@@H](O)[C@H]4O)c3n1)C(N)=NN2C ; result: >100 µM
OCC1OC(n2c(Br)cc3cc(Cl)c(Cl)cc32)C(O)C1O ; result: 100 µM
CN1N=C(N)c2cn([C@@H]3O[C@H](COP(=O)(O)O)[C@@H](O)[C@H]3O)c3ncnc1c23 ; result: 19 µM
CSc1nc2sncc2n1[C@@H]1O[C@H](CO)[C@@H](O)[C@H]1O ; result: 21 µM
CC(C)Nc1nc2cc(Cl)c(Cl)cc2n1[C@@H]1O[C@@H](CO)[C@@H](O)[C@H]1O ; result: >100 µM
Nc1nc2c(Cl)c(Cl)ccc2n1COCCO ; result: >100 µM
OC[C@H]1O[C@@H](n2c(SCc3ccccc3)nc3sncc32)C[C@@H]1O ; result: 2.1 µM
Nc1nc(=O)n([C@@H]2O[C@H](CO)[C@@H](O)[C@@H]2F)cc1I ; result: 7.6 µM
OCCCOCc1c(Cl)nc2ccc(Cl)cn12 ; result: 100 µM
O=c1[nH]c(=O)n([C@H]2C[C@H](O)[C@@H](CO)O2)cc1/C=C/Br ; result: 20 µM
OCCSCc1c(Cl)nc2ccc(Cl)cn12 ; result: >100 µM
Nc1nc2cc(Cl)c(Cl)cc2n1[C@H]1C[C@H](O)[C@@H](CO)O1 ; result: 32 µM
CCOCn1cc(C(N)=S)c2c(N)ncnc21 ; result: 32 µM
OC[C@H]1O[C@@H](n2c(SCc3ccccc3)nc3cc(Cl)c(Cl)cc32)C[C@@H]1O ; result: >100 µM
CSc1nc2snc(C)c2n1[C@H]1C[C@H](O)[C@@H](CO)O1 ; result: 32 µM